The values below come from US8435939B2 (priority 2000, dated 2013).

The series in a line: general procedure: Fmoc solid-phase peptide synthesis; Fmoc-NH-SAL resin. The conditions noted are these: whole synthesis, scale 1 mmole, one disulfide bridge, sequence written open.

As for “H-Arg-Arg-Nal-Cys-Tyr-Arg-Lys-DCit-Pro-Tyr-Arg-Cit-Cys-Arg-NH2”, the isolated mass was 1.432 g and the isolated yield is recorded as 59%.
